A mixed list of measured activities; the numbers were collected in NIAID ChemDB.

Common to all: growth or infection tests; organism: HIV-2; cells: MT-4; measure: EC50

Conditions beyond the fields shown may differ between rows.

SMILES	strain	read by	conditions	result
CC(C)(C)[Si](C)(C)OC[C@H]1O[C@@H](n2ccc(=O)n(CC(=O)O)c2=O)[C@H](O[Si](C)(C)C(C)(C)C)[C@@H]1O	ROD	cytopathic effect / trypan blue	-	>10 µM
NS(=O)(=O)c1ccc(NC2=NS(=O)(=O)NC(Cc3ccccc3)=C2)cc1	ROD	MTT	-	>318 µM
O=c1[nH]n(-c2nc3ccccc3c(=O)n2-c2ccccc2Cl)c(=O)c2ccccc12	ROD	visual reading	-	100 µM
CS(=O)(=O)c1ccc(OP(=O)(OC[C@@H]2C=C[C@H](n3cnc4c(N)ncnc43)O2)OC[C@@H]2C=C[C@H](n3cnc4c(N)ncnc43)O2)cc1	ROD	cytopathic effect / trypan blue	-	133 µM
Cc1cc(C(O)c2ccc3ccccc3c2)nc(Nc2ccc(C#N)cc2)n1	ROD	MTT	-	>31.2 µM
C1CNCCNCC(CCCC2CNCCNCCCNCCNC2)CNCCNC1	ROD	cytopathic effect / MTT	5 d	2 µM
Cc1nc(N2C(=O)CSC2c2c(F)cccc2F)ccc1Br	ROD	cytopathic effect	-	11.7 µM
Cc1cc(C)cc(C(=O)c2cccnc2Nc2cccnc2)c1	ROD	MTT	-	>41.63 µM
COC(=O)c1ccc(C(=O)N2CCC(NC(=O)c3cc(O)c(O)c(O)c3)CC2)cc1	ROD	MTT	-	>26.9 µM
Cc1cc(C)cc(C(=O)c2cccnc2Nc2ccc(C(N)=O)cc2)c1	ROD	MTT	-	>36.42 µM
CC(CC1CCCCC1)c1cc(=O)[nH]c(SCC(=O)c2ccc(O)cc2)n1	ROD	MTT	-	31 µM
Cc1cn([C@H]2C[C@H](N=[N+]=[N-])[C@@H](CO)O2)c(=O)[nH]c1=O	ROD	cytopathic effect / MTT	-	0.0008 µM
Cc1cn([C@H]2C[C@H](N=[N+]=[N-])[C@@H](COC(=O)CCC(=O)OC[C@H]3O[C@@H]4O[C@H]5[C@H](O)[C@@H](O)[C@@H](O[C@H]6[C@H](O)[C@@H](O)[C@@H](O[C@H]7[C@H](O)[C@@H](O)[C@@H](O[C@H]8[C@H](O)[C@@H](O)[C@@H](O[C@H]9[C@H](O)[C@@H](O)[C@@H](O[C@H]%10[C@H](O)[C@@H](O)[C@@H](O[C@H]3[C@H](O)[C@H]4O)O[C@@H]%10CO)O[C@@H]9CO)O[C@@H]8CO)O[C@@H]7CO)O[C@@H]6CO)O[C@@H]5CO)O2)c(=O)[nH]c1=O	ROD	cytopathic effect / MTT	-	0.0953 µg/mL
Cc1cn([C@@H]2O[C@H](CC3CCCCC3)C3(OS(=O)(=O)C=C3N)[C@H]2OC(=O)c2ccccc2)c(=O)[nH]c1=O	ROD	cytopathic effect / trypan blue	-	>4 µg/mL
O=C1CSC(c2c(Cl)cccc2Cl)N1C1CCCCC1	ROD	cytopathic effect	-	1.54 µM
O=c1[nH]n(-c2nc3ccccc3c(=O)n2-c2ccccc2)c(=O)c2ccccc12	ROD	visual reading	-	100 µM
Cc1cn([C@H]2C=C[C@@H](COP(=O)(OC[C@@H]3C=C[C@H](n4cc(C)c(=O)[nH]c4=O)O3)Oc3ccc(S(C)(=O)=O)cc3)O2)c(=O)[nH]c1=O	ROD	cytopathic effect / trypan blue	-	3.6 µM
Cc1cc(C)cc(C(=O)c2cccnc2Nc2ccc(S(N)(=O)=O)cc2)c1	ROD	MTT	-	>176 µM
O=S1(=O)N=C(Nc2ccc(F)c(F)c2)C=C(Cc2ccccc2)N1	ROD	MTT	-	>250 µM
Cc1cn([C@@H]2O[C@H](CO[Si](C)(C)C(C)(C)C)[C@@]3(OS(=O)(=O)C=C3N)[C@H]2O[Si](C)(C)C(C)(C)C)c(=O)[nH]c1=O	ROD	cytopathic effect / trypan blue	-	>4 µg/mL
Cc1ccnc2c1NC(=O)c1cccnc1N2C1CC1	ROD	MTT	-	>15 µM
CN(C)c1ccc(NC2=NS(=O)(=O)NC(Cc3ccccc3)=C2)cc1	ROD	MTT	-	>256 µM
Cc1cc(C)cc(C(=O)c2cccnc2Oc2ccc(C#N)cc2)c1	ROD	MTT	-	>31.61 µM
COc1ccc(-n2c(-n3[nH]c(=O)c4ccccc4c3=O)nc3ccccc3c2=O)cc1	ROD	visual reading	-	100 µM
Cc1ccc(NC2=NS(=O)(=O)NC(Cc3ccc4ccccc4c3)=C2)cc1C	ROD	MTT	-	>147 µM
N#Cc1ccc(Nc2nc(Oc3c(Cl)cc(Cl)cc3Cl)ncc2N)cc1	ROD	MTT	-	>26.48 µM
Cc1cc(C)cc(C(=O)c2cccnc2Nc2cnccn2)c1	ROD	MTT	-	>240 µM
O=C(NC1CCN(S(=O)(=O)c2ccc(F)cc2)CC1)c1cc(O)c(O)c(O)c1	ROD	MTT	-	>178.4 µM
CC(C)=CCN1Cc2cccc3[nH]c(=S)n(c23)C[C@@H]1C	ROD	trypan blue	-	>50 µM
CCCC(C)(C)[Si](C)(C)OC[C@H]1O[C@@H](n2cc(C)c(=O)n(CC(=O)O)c2=O)[C@H](O[Si](C)(C)C(C)(C)CCC)[C@@H]1O	ROD	cytopathic effect / trypan blue	-	>10 µM
CS(=O)(=O)c1ccc(OP(=O)(OC[C@@H]2C=C[C@H](n3ccc(N)nc3=O)O2)OC[C@@H]2C=C[C@H](n3ccc(N)nc3=O)O2)cc1	ROD	cytopathic effect / trypan blue	-	6 µM
O=C(NC1CCN(C(=O)c2ccc(F)cc2)CC1)c1cc(O)c(O)c(O)c1	ROD	MTT	-	>30.8 µM
N#Cc1ccc(Nc2nc(Oc3c(Cl)cccc3Cl)ncc2[N+](=O)[O-])cc1	ROD	MTT	-	>207 µM
O=C(CSc1sc(Cl)nc1-c1ccc(Br)cc1Br)Nc1ccccc1F	ROD	MTT	-	>33.18 µM
Cc1ccc(S(=O)(=O)OC[C@H]2O[C@@H](n3cc(C)c(=O)n(C)c3=O)[C@H](O[Si](C)(C)C(C)(C)C)C23OS(=O)(=O)C=C3N)cc1	ROD	syncytia	-	>30 µM
Nc1nc(-c2ccc(Br)cc2Br)c(SCC(=O)Nc2ccccc2N)s1	ROD	MTT	-	>33.04 µM
CCc1c(CCC2CCCCC2)nc(SCC(=O)c2ccc(O)cc2)[nH]c1=O	ROD	MTT	-	132 µM
CC(=O)c1ccc(Nc2ncccc2C(=O)c2cc(C)cc(C)c2)cc1	ROD	MTT	-	>34.78 µM
O=S1(=O)N=C(Nc2ccccc2Cl)C=C(Cc2cccc3ccccc23)N1	ROD	MTT	-	>154 µM
CCc1cn([C@@H]2O[C@H](CO[Si](C)(C)C(C)(C)C)[C@@H](O)[C@H]2O[Si](C)(C)C(C)(C)C)c(=O)n(CC(=O)O)c1=O	ROD	cytopathic effect / trypan blue	-	>2 µM
Cc1ccnc2c1NC(=O)c1cccnc1N2C1CC1	ROD	trypan blue	-	>50 µM
O=C1CSC(c2cccnc2)N1Cc1ccco1	ROD	cytopathic effect	-	84 µM
N#Cc1ccc(Nc2nccc(C(O)c3cccc4ccccc34)n2)cc1	ROD	MTT	-	>6.5 µM
C1CNCCNCCCN(CCN2CCCNCCNCCCNCC2)CCNC1	ROD	cytopathic effect / MTT	-	124.6 µM
CC(c1cc(=O)[nH]c(SCC(=O)c2ccc(F)cc2)n1)C1CCCCC1	ROD	MTT	-	165 µM
Cc1ccnc2c1NC(=O)c1cccnc1N2C1CC1	ROD	cytopathic effect / MTT	5 d	>1000 µM
CS(=O)(=O)c1ccc(OP(=O)(OC[C@@H]2C=C[C@H](n3ccc(=O)[nH]c3=O)O2)OC[C@@H]2C=C[C@H](n3ccc(=O)[nH]c3=O)O2)cc1	ROD	cytopathic effect / trypan blue	-	>250 µM
O=c1[nH]cnc2c1ncn2[C@H]1CC[C@@H](CO)O1	ROD	MTT	-	16 µM
Nc1ccn([C@H]2CC[C@@H](CO)O2)c(=O)n1	EHO	cytopathic effect / MTT	-	0.1 µM
COc1ccc(C(=O)CSc2nc(C(C)C3CCCCC3)c(C)c(=O)[nH]2)cc1	ROD	MTT	-	28 µM
c1cc(CN2CCCNCCNCCCNCC2)ccc1CN1CCCNCCNCCCNCC1	ROD	cytopathic effect / MTT	-	0.007 µg/mL
Cc1cn([C@@H]2O[C@H](CO[Si](C(C)(C)C)(C(C)(C)C)C(C)(C)C)C3(OS(=O)(=O)C=C3N)[C@H]2O[Si](C)(C)C(C)(C)C)c(=O)n(C)c1=O	ROD	syncytia	-	>30 µM
Cc1cc(C)cc(C(=O)c2cccnc2Nc2ccc(C(F)(F)F)cc2)c1	ROD	MTT	-	>106 µM
Cc1c(CCC2CCCCC2)nc(SCC(=O)c2ccccc2)[nH]c1=O	ROD	MTT	-	124 µM
CC(=O)N1CCC(NC(=O)c2cc(O)c(O)c(O)c2)CC1	ROD	MTT	-	>42.6 µM
Nc1ccn([C@H]2CC[C@@H](CO)O2)c(=O)n1	ROD	MTT	-	0.88 µM
N#Cc1ccc(Nc2nc(Oc3c(Br)cc(Br)cc3Br)ncc2N)cc1	ROD	MTT	-	>37.77 µM
Nc1ncnc2c1ncn2[C@H]1CC[C@@H](CO)O1	ROD	cytopathic effect / trypan blue	-	6 µM
Cc1cn([C@H]2C[C@H](N=[N+]=[N-])[C@@H](COC(=O)CCC(=O)O)O2)c(=O)[nH]c1=O	ROD	cytopathic effect / MTT	-	0.084 µg/mL
Nc1nc(-c2ccc(Br)cc2Br)c(SCC(=O)Nc2ccc(Cl)cc2Cl)s1	ROD	MTT	-	>20.73 µM
C(CCCN1CCCNCCNCCCNCC1)CCN1CCCNCCNCCCNCC1	ROD	cytopathic effect / MTT	-	0.616 µM
COc1ncccc1C(=O)c1cccc(C#N)c1	ROD	MTT	-	>255 µM
N#Cc1ccc(Nc2nc(Oc3c(Cl)cccc3Cl)ncc2NC(=O)C(F)(F)F)cc1	ROD	MTT	-	>190 µM
Cc1cn([C@@H]2O[C@H](CO[Si](C)(C)C(C)(C)C)[C@@H](O[Si](C)(C)C(C)(C)C)[C@H]2O)c(=O)n(CC(=O)ON)c1=O	ROD	cytopathic effect / trypan blue	-	>2 µM
C1CNCCNCC(CCC2CNCCNCCCNCCNC2)CNCCNC1	ROD	cytopathic effect / MTT	5 d	3.4 µM
O=c1[nH]n(-c2nc3ccccc3c(=O)n2-c2ccc([N+](=O)[O-])cc2)c(=O)c2ccccc12	ROD	visual reading	-	66.47 µM
O=S1(=O)N=C(Nc2ccc(F)cc2)C=C(Cc2cccc3ccccc23)N1	ROD	MTT	-	>158 µM
O=c1[nH]cnc2c1ncn2[C@H]1CC[C@@H](CO)O1	ROD	MTT	-	82.1 µM
Cc1cc(C=O)cc(C)c1Oc1ncc([N+](=O)[O-])c(Nc2ccc(C#N)cc2)n1	ROD	MTT	-	>37.18 µM
Cc1cn([C@@H]2O[C@H](CCC(C)C)C3(OS(=O)(=O)C=C3N)[C@H]2OC(=O)c2ccccc2)c(=O)[nH]c1=O	ROD	cytopathic effect / trypan blue	-	>4 µg/mL
CC(=O)Nc1cnc(Oc2c(C)cc(Br)cc2C)nc1Nc1ccc(C#N)cc1	ROD	MTT	-	>147.6 µM
CC(=O)O[C@@H]1[C@H](n2cc(C)c(=O)[nH]c2=O)O[C@@H](COC(=O)c2ccccc2)C12OS(=O)(=O)C=C2N	ROD	cytopathic effect / trypan blue	-	>100 µg/mL
Cc1cn([C@@H]2O[C@H](COC(=O)C(C)(C)C)C3(OS(=O)(=O)C=C3N)[C@H]2O[Si](C)(C)C(C)(C)C)c(=O)[nH]c1=O	ROD	syncytia	-	>35 µM
O=C(CSc1nc(CCC2CCCCC2)cc(=O)[nH]1)c1ccc(F)cc1	ROD	MTT	-	80 µM
Cc1cn([C@H]2CC[C@@H](CO)O2)c(=O)[nH]c1=O	ROD	cytopathic effect / trypan blue	-	3.9 µM
O=S1(=O)N=C(Nc2ccc(F)c(F)c2F)C=C(Cc2ccccc2)N1	ROD	MTT	-	>198 µM
CCOC(=O)CC(=O)N1CCC(NC(=O)c2cc(O)c(O)c(O)c2)CC1	ROD	MTT	-	>31.3 µM
Nc1ccn([C@H]2C=C[C@@H](CO)O2)c(=O)n1	ROD	cytopathic effect / trypan blue	-	0.7 µM
C1CNCCNCCCN(CCCN2CCCNCCNCCCNCC2)CCNC1	ROD	cytopathic effect / MTT	-	1 µM
CC(=O)Nc1nc(C)c(S(=O)(=O)N2CCC(NC(=O)c3cc(O)c(O)c(O)c3)CC2)s1	ROD	MTT	-	>80 µM

The first 12 rows once more:

SMILES,strain,read by,conditions,result
CC(C)(C)[Si](C)(C)OC[C@H]1O[C@@H](n2ccc(=O)n(CC(=O)O)c2=O)[C@H](O[Si](C)(C)C(C)(C)C)[C@@H]1O,ROD,cytopathic effect / trypan blue,-,>10 µM
NS(=O)(=O)c1ccc(NC2=NS(=O)(=O)NC(Cc3ccccc3)=C2)cc1,ROD,MTT,-,>318 µM
O=c1[nH]n(-c2nc3ccccc3c(=O)n2-c2ccccc2Cl)c(=O)c2ccccc12,ROD,visual reading,-,100 µM
CS(=O)(=O)c1ccc(OP(=O)(OC[C@@H]2C=C[C@H](n3cnc4c(N)ncnc43)O2)OC[C@@H]2C=C[C@H](n3cnc4c(N)ncnc43)O2)cc1,ROD,cytopathic effect / trypan blue,-,133 µM
Cc1cc(C(O)c2ccc3ccccc3c2)nc(Nc2ccc(C#N)cc2)n1,ROD,MTT,-,>31.2 µM
C1CNCCNCC(CCCC2CNCCNCCCNCCNC2)CNCCNC1,ROD,cytopathic effect / MTT,5 d,2 µM
Cc1nc(N2C(=O)CSC2c2c(F)cccc2F)ccc1Br,ROD,cytopathic effect,-,11.7 µM
Cc1cc(C)cc(C(=O)c2cccnc2Nc2cccnc2)c1,ROD,MTT,-,>41.63 µM
COC(=O)c1ccc(C(=O)N2CCC(NC(=O)c3cc(O)c(O)c(O)c3)CC2)cc1,ROD,MTT,-,>26.9 µM
Cc1cc(C)cc(C(=O)c2cccnc2Nc2ccc(C(N)=O)cc2)c1,ROD,MTT,-,>36.42 µM
CC(CC1CCCCC1)c1cc(=O)[nH]c(SCC(=O)c2ccc(O)cc2)n1,ROD,MTT,-,31 µM
Cc1cn([C@H]2C[C@H](N=[N+]=[N-])[C@@H](CO)O2)c(=O)[nH]c1=O,ROD,cytopathic effect / MTT,-,0.0008 µM

ECn: concentration that inhibits the pathogen or its effect by n%. Blank or dashed fields: not listed here.